Experimental data: paper PMC12678819, “Targeting bacterial kinases as a strategy to counteract antibiotic resistance” (2025)

Test system: Pseudomonas aeruginosa C0214
Experiment: Bacterial growth / checkerboard assay with kanamycin A
Details: panel C

Q: With `Cc1cc(-c2c(Cl)cnc3[nH]ccc23)[nH]n1` as the molecule, how does the growth curve reading (Kanamycin A 0 µg·mL-1, [10] 125 µM, 8 h) read?
A: 0.2684

Q: And the growth curve reading (Kanamycin A 0 µg·mL-1, [10] 125 µM, 9 h)?
A: 0.2792

Q: And the growth curve reading (Kanamycin A 0 µg·mL-1, [10] 125 µM, 10 h)?
A: 0.2903

Q: What about the growth curve reading (Kanamycin A 0 µg·mL-1, [10] 125 µM, 11 h) of the same molecule?
A: 0.2996

Q: What about the growth curve reading (Kanamycin A 0 µg·mL-1, [10] 125 µM, 12 h) of the same molecule?
A: 0.3025

Q: And the growth curve reading (Kanamycin A 0 µg·mL-1, [10] 125 µM, 13 h)?
A: 0.3085

Q: What about the growth curve reading (Kanamycin A 0 µg·mL-1, [10] 125 µM, 14 h) of the same molecule?
A: 0.3168

Q: What about the growth curve reading (Kanamycin A 0 µg·mL-1, [10] 125 µM, 15 h) of the same molecule?
A: 0.3231

Q: And the growth curve reading (Kanamycin A 0 µg·mL-1, [10] 125 µM, 16 h)?
A: 0.3257

Q: What about the growth curve reading (Kanamycin A 0 µg·mL-1, [10] 125 µM, 17 h) of the same molecule?
A: 0.3208

Q: What about the growth curve reading (Kanamycin A 0 µg·mL-1, [10] 125 µM, 18 h) of the same molecule?
A: 0.3174

Q: And the growth curve reading (Kanamycin A 0 µg·mL-1, [10] 125 µM, 19 h)?
A: 0.3133

Q: What about the growth curve reading (Kanamycin A 0 µg·mL-1, [10] 125 µM, 20 h) of the same molecule?
A: 0.3105

Q: And the growth curve reading (Kanamycin A 0 µg·mL-1, [10] 125 µM, 21 h)?
A: 0.3041

Q: What about the growth curve reading (Kanamycin A 0 µg·mL-1, [10] 125 µM, 22 h) of the same molecule?
A: 0.2995

Q: And the growth curve reading (Kanamycin A 0 µg·mL-1, [10] 125 µM, 23 h)?
A: 0.2966

Q: And the growth curve reading (Kanamycin A 0 µg·mL-1, [10] 125 µM, 24 h)?
A: 0.2930

Q: What about the growth curve reading (Kanamycin A 0 µg·mL-1, [10] 250 µM, 8 h) of the same molecule?
A: 0.2802

Q: What about the growth curve reading (Kanamycin A 0 µg·mL-1, [10] 250 µM, 9 h) of the same molecule?
A: 0.2949

Q: What about the growth curve reading (Kanamycin A 0 µg·mL-1, [10] 250 µM, 10 h) of the same molecule?
A: 0.3074

Q: What about the growth curve reading (Kanamycin A 0 µg·mL-1, [10] 250 µM, 11 h) of the same molecule?
A: 0.3034

Q: What about the growth curve reading (Kanamycin A 0 µg·mL-1, [10] 250 µM, 12 h) of the same molecule?
A: 0.3117

Q: And the growth curve reading (Kanamycin A 0 µg·mL-1, [10] 250 µM, 13 h)?
A: 0.3163

Q: What about the growth curve reading (Kanamycin A 0 µg·mL-1, [10] 250 µM, 14 h) of the same molecule?
A: 0.3216

Q: What about the growth curve reading (Kanamycin A 0 µg·mL-1, [10] 250 µM, 15 h) of the same molecule?
A: 0.3278

Q: And the growth curve reading (Kanamycin A 0 µg·mL-1, [10] 250 µM, 16 h)?
A: 0.3246

Q: And the growth curve reading (Kanamycin A 0 µg·mL-1, [10] 250 µM, 17 h)?
A: 0.3269

Q: What about the growth curve reading (Kanamycin A 0 µg·mL-1, [10] 250 µM, 18 h) of the same molecule?
A: 0.3250

Q: What about the growth curve reading (Kanamycin A 0 µg·mL-1, [10] 250 µM, 19 h) of the same molecule?
A: 0.3257

Q: What about the growth curve reading (Kanamycin A 0 µg·mL-1, [10] 250 µM, 20 h) of the same molecule?
A: 0.3212

Q: What about the growth curve reading (Kanamycin A 0 µg·mL-1, [10] 250 µM, 21 h) of the same molecule?
A: 0.3186

Q: What about the growth curve reading (Kanamycin A 0 µg·mL-1, [10] 250 µM, 22 h) of the same molecule?
A: 0.3158

Q: And the growth curve reading (Kanamycin A 0 µg·mL-1, [10] 250 µM, 23 h)?
A: 0.3109

Q: What about the growth curve reading (Kanamycin A 0 µg·mL-1, [10] 250 µM, 24 h) of the same molecule?
A: 0.3077

Q: What about the growth curve reading (Kanamycin A 0 µg·mL-1, [10] 500 µM, 8 h) of the same molecule?
A: 0.2732

Q: And the growth curve reading (Kanamycin A 0 µg·mL-1, [10] 500 µM, 9 h)?
A: 0.2819

Q: What about the growth curve reading (Kanamycin A 0 µg·mL-1, [10] 500 µM, 10 h) of the same molecule?
A: 0.2846

Q: And the growth curve reading (Kanamycin A 0 µg·mL-1, [10] 500 µM, 11 h)?
A: 0.2894

Q: What about the growth curve reading (Kanamycin A 0 µg·mL-1, [10] 500 µM, 12 h) of the same molecule?
A: 0.2927

Q: And the growth curve reading (Kanamycin A 0 µg·mL-1, [10] 500 µM, 13 h)?
A: 0.3029

Q: And the growth curve reading (Kanamycin A 0 µg·mL-1, [10] 500 µM, 14 h)?
A: 0.3106

Q: And the growth curve reading (Kanamycin A 0 µg·mL-1, [10] 500 µM, 15 h)?
A: 0.3172

Q: And the growth curve reading (Kanamycin A 0 µg·mL-1, [10] 500 µM, 16 h)?
A: 0.3235

Q: What about the growth curve reading (Kanamycin A 0 µg·mL-1, [10] 500 µM, 17 h) of the same molecule?
A: 0.3285

Q: What about the growth curve reading (Kanamycin A 0 µg·mL-1, [10] 500 µM, 18 h) of the same molecule?
A: 0.3275

Q: What about the growth curve reading (Kanamycin A 0 µg·mL-1, [10] 500 µM, 19 h) of the same molecule?
A: 0.3273

Q: What about the growth curve reading (Kanamycin A 0 µg·mL-1, [10] 500 µM, 20 h) of the same molecule?
A: 0.3236

Q: What about the growth curve reading (Kanamycin A 0 µg·mL-1, [10] 500 µM, 21 h) of the same molecule?
A: 0.3156

Q: What about the growth curve reading (Kanamycin A 0 µg·mL-1, [10] 500 µM, 22 h) of the same molecule?
A: 0.3081

Q: And the growth curve reading (Kanamycin A 0 µg·mL-1, [10] 500 µM, 23 h)?
A: 0.3018

Q: And the growth curve reading (Kanamycin A 0 µg·mL-1, [10] 500 µM, 24 h)?
A: 0.2959

Q: What about the growth curve reading (Kanamycin A 8 µg·mL-1, [10] 125 µM, 8 h) of the same molecule?
A: 0.2269

Q: What about the growth curve reading (Kanamycin A 8 µg·mL-1, [10] 125 µM, 9 h) of the same molecule?
A: 0.2406

Q: What about the growth curve reading (Kanamycin A 8 µg·mL-1, [10] 125 µM, 10 h) of the same molecule?
A: 0.2611

Q: And the growth curve reading (Kanamycin A 8 µg·mL-1, [10] 125 µM, 11 h)?
A: 0.2689

Q: What about the growth curve reading (Kanamycin A 8 µg·mL-1, [10] 125 µM, 12 h) of the same molecule?
A: 0.2747

Q: What about the growth curve reading (Kanamycin A 8 µg·mL-1, [10] 125 µM, 13 h) of the same molecule?
A: 0.2827

Q: And the growth curve reading (Kanamycin A 8 µg·mL-1, [10] 125 µM, 14 h)?
A: 0.2820

Q: What about the growth curve reading (Kanamycin A 8 µg·mL-1, [10] 125 µM, 15 h) of the same molecule?
A: 0.2860

Q: And the growth curve reading (Kanamycin A 8 µg·mL-1, [10] 125 µM, 16 h)?
A: 0.2854

Q: And the growth curve reading (Kanamycin A 8 µg·mL-1, [10] 125 µM, 17 h)?
A: 0.2807

Q: What about the growth curve reading (Kanamycin A 8 µg·mL-1, [10] 125 µM, 18 h) of the same molecule?
A: 0.2846

Q: And the growth curve reading (Kanamycin A 8 µg·mL-1, [10] 125 µM, 19 h)?
A: 0.2869

Q: And the growth curve reading (Kanamycin A 8 µg·mL-1, [10] 125 µM, 20 h)?
A: 0.2848

Q: And the growth curve reading (Kanamycin A 8 µg·mL-1, [10] 125 µM, 21 h)?
A: 0.2827

Q: What about the growth curve reading (Kanamycin A 8 µg·mL-1, [10] 125 µM, 22 h) of the same molecule?
A: 0.2836

Q: What about the growth curve reading (Kanamycin A 8 µg·mL-1, [10] 125 µM, 23 h) of the same molecule?
A: 0.2856

Q: What about the growth curve reading (Kanamycin A 8 µg·mL-1, [10] 125 µM, 24 h) of the same molecule?
A: 0.2906

Q: And the growth curve reading (Kanamycin A 8 µg·mL-1, [10] 250 µM, 8 h)?
A: 0.2386

Q: And the growth curve reading (Kanamycin A 8 µg·mL-1, [10] 250 µM, 9 h)?
A: 0.2587

Q: And the growth curve reading (Kanamycin A 8 µg·mL-1, [10] 250 µM, 10 h)?
A: 0.2713

Q: And the growth curve reading (Kanamycin A 8 µg·mL-1, [10] 250 µM, 11 h)?
A: 0.2824

Q: And the growth curve reading (Kanamycin A 8 µg·mL-1, [10] 250 µM, 12 h)?
A: 0.2887

Q: What about the growth curve reading (Kanamycin A 8 µg·mL-1, [10] 250 µM, 13 h) of the same molecule?
A: 0.2895

Q: And the growth curve reading (Kanamycin A 8 µg·mL-1, [10] 250 µM, 14 h)?
A: 0.2909

Q: And the growth curve reading (Kanamycin A 8 µg·mL-1, [10] 250 µM, 15 h)?
A: 0.2885

Q: What about the growth curve reading (Kanamycin A 8 µg·mL-1, [10] 250 µM, 16 h) of the same molecule?
A: 0.2886

Q: What about the growth curve reading (Kanamycin A 8 µg·mL-1, [10] 250 µM, 17 h) of the same molecule?
A: 0.2882

Q: What about the growth curve reading (Kanamycin A 8 µg·mL-1, [10] 250 µM, 18 h) of the same molecule?
A: 0.2883

Q: What about the growth curve reading (Kanamycin A 8 µg·mL-1, [10] 250 µM, 19 h) of the same molecule?
A: 0.2910

Q: What about the growth curve reading (Kanamycin A 8 µg·mL-1, [10] 250 µM, 20 h) of the same molecule?
A: 0.2912

Q: And the growth curve reading (Kanamycin A 8 µg·mL-1, [10] 250 µM, 21 h)?
A: 0.2907

Q: What about the growth curve reading (Kanamycin A 8 µg·mL-1, [10] 250 µM, 22 h) of the same molecule?
A: 0.2906

Q: And the growth curve reading (Kanamycin A 8 µg·mL-1, [10] 250 µM, 23 h)?
A: 0.2942

Q: And the growth curve reading (Kanamycin A 8 µg·mL-1, [10] 250 µM, 24 h)?
A: 0.2964

Q: What about the growth curve reading (Kanamycin A 8 µg·mL-1, [10] 500 µM, 8 h) of the same molecule?
A: 0.2276

Q: And the growth curve reading (Kanamycin A 8 µg·mL-1, [10] 500 µM, 9 h)?
A: 0.2491

Q: What about the growth curve reading (Kanamycin A 8 µg·mL-1, [10] 500 µM, 10 h) of the same molecule?
A: 0.2720

Q: What about the growth curve reading (Kanamycin A 8 µg·mL-1, [10] 500 µM, 11 h) of the same molecule?
A: 0.2895

Q: And the growth curve reading (Kanamycin A 8 µg·mL-1, [10] 500 µM, 12 h)?
A: 0.2989

Q: What about the growth curve reading (Kanamycin A 8 µg·mL-1, [10] 500 µM, 13 h) of the same molecule?
A: 0.3019

Q: And the growth curve reading (Kanamycin A 8 µg·mL-1, [10] 500 µM, 14 h)?
A: 0.3013

Q: And the growth curve reading (Kanamycin A 8 µg·mL-1, [10] 500 µM, 15 h)?
A: 0.2986

Q: What about the growth curve reading (Kanamycin A 8 µg·mL-1, [10] 500 µM, 16 h) of the same molecule?
A: 0.2975

Q: And the growth curve reading (Kanamycin A 8 µg·mL-1, [10] 500 µM, 17 h)?
A: 0.2960

Q: What about the growth curve reading (Kanamycin A 8 µg·mL-1, [10] 500 µM, 18 h) of the same molecule?
A: 0.2947

Q: What about the growth curve reading (Kanamycin A 8 µg·mL-1, [10] 500 µM, 19 h) of the same molecule?
A: 0.2901

Q: What about the growth curve reading (Kanamycin A 8 µg·mL-1, [10] 500 µM, 20 h) of the same molecule?
A: 0.2881

Q: What about the growth curve reading (Kanamycin A 8 µg·mL-1, [10] 500 µM, 21 h) of the same molecule?
A: 0.2873

Q: And the growth curve reading (Kanamycin A 8 µg·mL-1, [10] 500 µM, 22 h)?
A: 0.2838

Q: What about the growth curve reading (Kanamycin A 8 µg·mL-1, [10] 500 µM, 23 h) of the same molecule?
A: 0.2819

Q: What about the growth curve reading (Kanamycin A 8 µg·mL-1, [10] 500 µM, 24 h) of the same molecule?
A: 0.2788

Q: What about the growth curve reading (Kanamycin A 16 µg·mL-1, [10] 125 µM, 8 h) of the same molecule?
A: 0.1586

Q: What about the growth curve reading (Kanamycin A 16 µg·mL-1, [10] 125 µM, 9 h) of the same molecule?
A: 0.1951
